# Measured values published in US20040086901A1, “Database for analyzing gene function and method of analyzing gene function by dspa” (priority 2000, published 2004).
# The amount applied is not stated for every result. Non-standard residues stand in square brackets, D forms with d. Residues, ends and D or L forms follow the SMILES beside them. Nle = CCCC[C@H](N)C(=O)O
# Test system: MSSP-10 cells
# Assay: DSPA drug sensitivity pattern, MSSP-10 cells
# Type: cell-based
# Conditions: drug sensitivity pattern of F25 + substance vs MSSP-10
row,SMILES,correlation coefficient (r) with MSSP-10
1,CCCC[C@@H](C=O)NC(=O)[C@H](CC(C)C)NC(=O)[C@H](CC(C)C)NC(C)=O [ALLN] (Ac-Leu-Leu-[Nle]-aldehyde),−0.44
2,CC(C)(C)C(=O)Oc1ccc(S(=O)(=O)Nc2ccccc2C(=O)NCC(=O)O)cc1 [ONO5046],0.26
3,C[C@@H](N)[C@H]1CC[C@H](C(=O)Nc2ccncc2)CC1 [Y27632],−0.11
4,CC(=O)N[C@@H](CSC(=O)[C@]1([C@@H](O)C(C)C)NC(=O)[C@H](C)[C@@H]1O)C(=O)O [lactacystin],−0.07
